The test system of experiment [1] is 33 isolates of M. tuberculosis. Nature of the experiment: D29 phage-qPCR drug susceptibility assay, 33 isolates. The experiment is classed as cell-based, Mycobacterium tuberculosis. Conditions: isolates with no mutation in rpoB. In general terms: Quantitative PCR measures a nucleic acid by following its amplification.
In another experiment the test system is M. tuberculosis isolates. Nature of the experiment: Standard agar proportion method. Conditions: isolates with no mutation in rpoB. The experiment is classed as cell-based, Mycobacterium tuberculosis.

For the compound `CO[C@H]1/C=C/O[C@@]2(C)Oc3c(C)c(O)c4c(O)c(c(/C=N/N5CCN(C)CC5)c(O)c4c3C2=O)NC(=O)/C(C)=C\C=C\[C@H](C)[C@H](O)[C@@H](C)[C@@H](O)[C@@H](C)[C@H](OC(C)=O)[C@@H]1C` [Rifampin, rifampin], in experiment [1], the “D29 phage assay Resistant (n isolates)” value turned out to be 0. The “Agar proportion Resistant (n isolates)” value with M. tuberculosis isolates is given as 0.

(Values after patent US20140256664A1, “COMPOSITIONS AND METHODS FOR A MYCOBACTERIUM TUBERCULOSIS DRUG SUSCEPTIBILITY TEST” (priority 2011, published 2014).)
